Measured values from several laboratories, pooled; numbers as filed in NIAID ChemDB.

Common to all: whole-cell or culture tests; species: Mycobacterium tuberculosis

An empty or dashed field is not shown.

| SMILES | tested at | setting | measure | strain | read by | changes | result |
|---|---|---|---|---|---|---|---|
| O=C(Nc1ccccc1)c1ncccc1O | - | - | MIC | CNCTC MY 331/8 | - | - | 250 µM |
| O=[N+]([O-])c1ccc(-n2cnc([N+](=O)[O-])c2)cc1 | - | - | MIC | H37Rv | - | - | >6.25 µg/mL |
| COC(=S)SSC(=S)NCCNC(=S)SSC(=S)OC | 12.5 µg/mL | - | inhibition | H37Rv | BACTEC | - | 100% |
| COc1ccc(C(=O)/C=C/c2ccc(O)cc2)c(OC)c1OC | - | - | MIC | H37Ra | - | - | >606 µM |
| CCC(C)N1CCN(c2cc(=O)c3nc4c(oc3c2)c2c(=O)c3c(O)c(C)c5c(c34)=C(O)[C@@](C)(O/C=C/[C@H](OC)[C@@H](C)[C@@H](OC(C)=O)[C@H](C)[C@H](O)[C@H](C)[C@@H](O)[C@@H](C)/C=C/C=C(/C)C(=O)N2)O5)CC1 | - | - | MIC90 | 20 strains | - | - | 0.07 µg/mL |
| CCCCN1CCN(c2ccc3nc(-c4ccc5nc(-c6ccc(OC)c(OC)c6)[nH]c5c4)[nH]c3c2)CC1 | - | - | MIC90 | H37Ra | broth dilution / turbidity | - | 7.3 µg/mL |
| O=C1CCCCC/C1=C\c1cccc(Br)c1 | 12.5 µg/mL | - | inhibition | H37Rv | broth dilution / resazurin | - | 0% |
| CSc1ncnc2c1cnn2Cc1cnnn1COC[C@H](O)CO | 12.5 µg/mL | - | inhibition | H37Rv | BACTEC | - | 0% |
| COC(=O)Nc1c(C#N)[n+]([O-])c2ccccc2[n+]1[O-] | - | - | MIC | H37Rv | - | - | <12.5 µg/mL |
| O=[N+]([O-])c1ccc(OCc2nn3c(Cc4ccc5ccccc5c4)nnc3s2)cc1 | - | - | MIC | Clinical isolate MDRTB | - | Isoniazid- and rifampin-resistant | 168.5 µg/mL |
| C[C@@H]1CN(c2c(F)c(N)c3c(=O)c(C(=O)O)cn(C4CC4)c3c2F)C[C@H](C)N1 | - | - | MIC90 | 20 strains | - | - | ≤0.01 µg/mL |
| CCCCNC(=S)NNc1ccc([N+](=O)[O-])cn1 | - | - | MIC | H37Rv | BACTEC | - | ≥12.5 µg/mL |
| C=CCn1c(SCc2ccccc2)nnc1-c1ccc(N)cc1 | 6.25 µg/mL | - | inhibition | H37Rv | - | - | <50% |
| Cn1nnc(-c2ccc(-c3ccc(N4C[C@H](CO)OC4=O)cc3F)cn2)n1 | - | - | MIC90 | 25 isolates (isoniazid rifampin-resistant) | - | - | 0.5 µg/mL |
| Nc1ncnc2c1cnn2COC[C@@H](O)CO | 12.5 µg/mL | - | inhibition | H37Rv | BACTEC | - | 0% |
| CCOc1ccc2c(c1)[n+]([O-])c(S(=O)(=O)c1ccc(C)cc1)c(N)[n+]2[O-] | - | - | MIC | INH-r | - | - | >12.5 µg/mL |
| O=C(NCc1ccc([N+](=O)[O-])cc1)c1ncccc1S | - | - | MIC | CNCTC MY 331/8 | - | - | 16 µM |
| C=CCn1c(SCc2ccc(Cl)cc2Cl)nnc1-c1ccc(N=Cc2ccc(F)cc2)cc1 | 6.25 µg/mL | - | inhibition | H37Rv | - | - | <50% |
| O=C1/C(=C/c2cccc(Br)c2)CCc2ccccc21 | 12.5 µg/mL | - | inhibition | H37Rv | broth dilution / resazurin | - | 56% |
| Cc1c(Cc2ccccc2Cl)c(=O)n2c([nH]c3ccccc32)c1C#N | - | - | MIC90 | H37Rv | resazurin | - | >128 µg/mL |
| CO[C@H]1/C=C/O[C@@]2(C)Oc3c(C)c(O)c4c(O)c(c(/C=N/N5CCN(C)CC5)c(O)c4c3C2=O)NC(=O)/C(C)=C\C=C\[C@H](C)[C@H](O)[C@@H](C)[C@@H](O)[C@@H](C)[C@H](OC(C)=O)[C@@H]1C | - | - | MIC90 | 11 isolates (MDR) | - | - | >32 µg/mL |
| CSc1nc(NC2OC(COC(C)=O)C(OC(C)=O)C(OC(C)=O)C2OC(C)=O)c(-c2csc(N)n2)c(=O)n1C | 12.5 µg/mL | - | inhibition | H37Rv | BACTEC | - | 0% |
| COc1ccc(-c2cc(=O)c3c(O)cc(O)cc3o2)cc1 | - | - | MIC | H37Ra | - | - | 704.2 µM |
| COc1ccc(OCc2nn3c(-c4ccc(Br)cc4)nnc3s2)cc1 | - | - | MIC | Clinical isolate MDRTB | - | Isoniazid- and rifampin-resistant | 8 µg/mL |
| Cc1cc2c(cc1C)[n+]([O-])c(NC(=O)OC(C)C)c(C#N)[n+]2[O-] | 6.25 µg/mL | - | inhibition | H37Rv | - | - | 100% |
| CO[C@H]1/C=C/O[C@@]2(C)Oc3c(C)c(O)c4c(O)c(c(/C=N/N=C/N5CCCCC5)c(O)c4c3C2=O)NC(=O)/C(C)=C\C=C\[C@H](C)[C@H](O)[C@@H](C)[C@@H](O)[C@@H](C)[C@H](OC(C)=O)[C@@H]1C | - | - | MIC | isolates 2 | - | - | >200 µg/mL |
| C#CCn1ncc2c(Cc3ccccc3)ncnc21 | 12.5 µg/mL | - | inhibition | H37Rv | BACTEC | - | 90% |
| CC1COc2c(N3CCN(C)CC3)c(F)cc3c(=O)c(C(=O)O)cn1c23 | - | - | MIC90 | 20 strains | - | - | 0.05–0.1 µg/mL |
| Cc1oc2c(C)c(O)c3c(c2c1C1(C)OCCO1)C(=O)C=C(Cl)C3=O | 12.5 µg/mL | - | inhibition | H37Rv | BACTEC | - | 9% |
| Cc1cc(Cl)ccc1OCc1nn2c(-c3ccc(Br)cc3)nnc2s1 | - | - | MIC | Clinical isolate MDRTB | - | Isoniazid- and rifampin-resistant | 8 µg/mL |
| Cc1ccc(-n2c(SCc3ccccc3)nnc2-c2ccc(N=Cc3ccc(Cl)cc3)cc2)cc1 | - | - | EC50 | H37Rv | - | - | >6.25 µg/mL |
| [Cl][Pd][Cl].c1ccc(P(c2ccccc2)c2ccccc2)cc1.c1cn[nH]c1 | - | - | MIC90 | H37Rv | resazurin | - | 11.95 µM |
| O=c1[nH]cnc2c1cnn2Cc1cn(COC[C@@H](O)CO)nn1 | 12.5 µg/mL | - | inhibition | H37Rv | BACTEC | - | 0% |
| O=C(O)c1ccc(NC(=O)C(F)(F)F)cc1O | - | - | MIC90 | H37Rv | broth dilution | - | <12.5 µg/mL |
| O=C1C[C@H](O)C2(Oc3cccc4cccc(c34)O2)c2cccc(O)c21 | - | - | MIC | - | - | - | 6.25 µg/mL |
| Cc1ccnc(NS(=O)(=O)c2ccc(N3C(=O)CC(=O)N(c4ccc(C(=O)O)c(O)c4)C3=S)cc2)n1 | 12.5 µg/mL | - | inhibition | H37Rv | resazurin | - | 87% |
| CO[C@H]1/C=C/O[C@@]2(C)Oc3c(C)c(O)c4c(O)c(c5c(c4c3C2=O)NC2(CCN(CC(C)C)CC2)N=5)=NC(=O)/C(C)=C\C=C\[C@H](C)[C@H](O)[C@@H](C)[C@@H](O)[C@@H](C)[C@H](OC(C)=O)[C@@H]1C | - | - | MIC | H37Rv | - | - | 0.035 µg/mL |
| COc1ccc(Cc2c(C)c(C#N)c3[nH]c4ccccc4n3c2=O)cc1 | - | - | MIC90 | KZN494 | resazurin | - | 0.5 µg/mL |
| COc1cc2c(cc1O)CC[n+]1cc3c(OC)c(OC)ccc3cc1-2 | - | - | MIC bound | H37Rv | BACTEC | - | >12.5 µg/mL |
| CN(C)CCCNC(=O)Nc1c(C#N)[n+]([O-])c2cc(Cl)c(Cl)cc2[n+]1[O-] | 6.25 µg/mL | - | inhibition | H37Rv | - | - | 99% |
| CCCC/C=C/CCCCCCCCCCCCCc1c(OC(C)=O)c(OC(C)=O)c(C)c(OC(C)=O)c1OC(C)=O | - | - | MIC | MDR | BACTEC | - | 40 µg/mL |
| O=C1c2ccccc2C(=O)c2c1oc1ccc3ccccc3c21 | 6.25 µg/mL | - | inhibition | H37Rv | resazurin | - | 61% |
| CCn1cc(C(=O)O)c(=O)c2ccc(C)nc21 | - | - | MIC90 | BCG | - | gyrA mutation D94G | >50 µM |
| O=[N+]([O-])c1ccc(-n2cc([N+](=O)[O-])cn2)cc1 | 6.25 µg/mL | - | inhibition | H37Rv | - | - | 11% |
| Cc1ccc2c(c1)C1(SC(C)C(=O)N1c1ccc(Cl)cc1)C(=O)N2CN1CCOCC1 | - | - | MIC bound | H37Rv | BACTEC | - | >12.8 µg/mL |
| CC[C@H]1OC(=O)[C@H](C)[C@@H](O[C@H]2C[C@@](C)(OC)[C@@H](O)[C@H](C)O2)[C@H](C)[C@@H](O[C@@H]2O[C@H](C)C[C@H](N(C)C)[C@H]2O)[C@](C)(OC)C[C@@H](C)C(=O)[C@H](C)[C@@H](O)[C@]1(C)O | - | - | MIC90 | 22 isolates (rifampicin isoniazid-susceptible) | - | - | 8 µg/mL |
| COc1ccc2c(c1)C(CC(=O)NN)CCC2 | - | - | MIC bound | H37Rv | BACTEC | - | >12.5 µg/mL |
| O=[N+]([O-])c1ccc(OCc2nn3c(-c4ccc(Cl)cc4)nnc3s2)cc1 | - | - | MIC | Clinical isolate MDRTB | - | Isoniazid- and rifampin-resistant | 2 µg/mL |
| CN(C)CCCNC(=O)Nc1c(C#N)[n+]([O-])c2cc(F)ccc2[n+]1[O-] | - | - | MIC | H37Rv | - | - | >12.5 µg/mL |
| Cc1ccc(-n2c(SCc3ccc(Cl)cc3Cl)nnc2-c2ccc(N)cc2)cc1 | - | - | EC50 | H37Rv | - | - | >6.25 µg/mL |
| O=C1/C(=C\c2ccc([N+](=O)[O-])o2)Oc2cc(O)ccc21 | 12.5 µg/mL | - | inhibition | H37Rv | BACTEC | - | 32% |
| Cc1nc([N+](=O)[O-])cn1-c1ccc(Br)cc1 | - | - | MIC | H37Rv | - | - | >6.25 µg/mL |
| CC1(C)CCCC2(C)C3C(O)CC2(C)C(O)C31 | 6.25 µg/mL | - | inhibition | H37Rv | resazurin | - | 30% |
| Cc1cc2c(c(O)c1-c1c(C)cc(O)c3c1C(=O)C=CC3=O)C(=O)C=CC2=O | - | - | MIC | - | - | - | >200 µg/mL |
| C=CCn1c(SCc2ccc(Cl)cc2Cl)nnc1-c1ccc(N)cc1 | 6.25 µg/mL | - | inhibition | H37Rv | - | - | <50% |
| CCCCNC(=S)NNC(=O)c1ccncc1 | - | - | MIC bound | H37Rv | resazurin | - | <6.25 µg/mL |
| O=C(Nc1ccc(Cl)c(Cl)c1)c1ncccc1S | - | - | MIC | CNCTC MY 331/8 | - | - | 62.5 µM |
| O=[N+]([O-])c1cn[nH]c1.[Cl][Pd][Cl].c1ccc(P(c2ccccc2)c2ccccc2)cc1 | - | - | MIC90 | H37Rv | resazurin | - | 18.63 µM |
| O=C(O)C1C2C=CC(O2)C1C(=O)NCc1cccnc1 | - | - | MIC bound | H37Rv | BACTEC | - | >12.5 µg/mL |
| Fc1ccc(OCc2nn3c(-c4ccc(Cl)cc4)nnc3s2)cc1 | - | - | MIC | Clinical isolate MDRTB | - | Isoniazid- and rifampin-resistant | 8 µg/mL |
| COc1ccccc1/C=C1\COc2ccccc2C1=O | 10 µg/mL | - | inhibition | H37Rv | broth dilution / resazurin | - | 65% |
| CNc1ncnc2c1cnn2COC[C@@H](O)CO | 12.5 µg/mL | - | inhibition | H37Rv | BACTEC | - | 0% |
| CC1=NN(C(=O)c2ccncc2)C(=O)C1N=Nc1ccc(-c2ccc(N)cc2)cc1 | - | - | MIC bound | H37Rv | BACTEC | - | >12.8 µg/mL |
| Cc1ccnc(NS(=O)(=O)c2ccc(NC(=S)Nc3ccc(C(=O)O)c(O)c3)cc2)n1 | 12.5 µg/mL | - | inhibition | H37Rv | resazurin | - | 85% |
| Cc1ccc(CNC(=O)c2ncccc2S)cc1 | - | - | MIC | CNCTC MY 331/8 | - | - | 8 µM |
| Cc1cc(C)[nH]n1 | - | - | MIC90 | H37Rv | resazurin | - | >250 µg/mL |
| O=C(Nc1ccc(F)cc1)c1ncccc1O | - | - | MIC | CNCTC MY 331/8 | - | - | 128 µM |
| CC.COC(=O)[C@H]1Cc2cc(O)c(O)cc2C2(CCN(C)CC2)O1.Cc1ccc(S(=O)(=O)O)cc1 | 12.5 µg/mL | - | inhibition | H37Rv | BACTEC | - | 22% |
| O=C(O)c1ccc(N2C(=O)C(C(=O)C(F)(F)F)C(=O)N(c3ccc(S(=O)(=O)Nc4ncccn4)cc3)C2=S)cc1O | 12.5 µg/mL | - | inhibition | H37Rv | resazurin | - | 95% |
| N#Cc1c(N)[n+]([O-])c2ccc(C(F)(F)F)cc2[n+]1[O-] | - | - | MIC | H37Rv | - | - | <12.5 µg/mL |
| COc1ccc(/C=C/C(=O)c2ccc(OC)c(OC)c2OC)cc1 | - | - | MIC | H37Ra | - | - | >581.4 µM |
| Clc1ccc(OCc2nn3c(-c4ccc(Br)cc4)nnc3s2)c(Cl)c1 | - | - | MIC | Clinical isolate MDRTB | - | Isoniazid- and rifampin-resistant | 16 µg/mL |
| NNC(=O)c1ccncc1 | - | - | MIC50 | 11 isolates (MDR) | - | - | 4 µg/mL |
| O=C(Nc1ccc(NC(=O)c2ccncc2)cc1)c1ccncc1 | - | - | MIC bound | H37Rv | resazurin | - | >6.25 µg/mL |
| O=C(NNC(=S)Nc1ccc(C(=O)O)c(O)c1)c1ccncc1 | - | - | MIC90 | H37Rv | broth dilution | - | <12.5 µg/mL |
| O=C(N/N=C/c1c(O)ccc2ccccc12)C(=O)N/N=C/c1c(O)ccc2ccccc12 | 12.5 µg/mL | - | inhibition | H37Rv | BACTEC | - | -6% |
| CNc1ncnc2c1cnn2Cc1cn(COC[C@@H](O)CO)nn1 | 12.5 µg/mL | - | inhibition | H37Rv | BACTEC | - | 0% |
| O=C1C=C[C@@H](COC2OC(CO)C(O)C(O)C2O)O1 | - | - | MIC | TAC-R | - | - | 6.3 µg/mL |
| Cc1cc2nc(N)c(C#N)nc2cc1C | 6.25 µg/mL | - | inhibition | H37Rv | - | - | 0% |
| Cc1ccc(S(=O)(=O)[O-])cc1.Cc1ccc(S(=O)(=O)[O-])cc1.Cn1c(COc2ccc(/C=N/NC(=O)c3ccc(C(=O)N/N=C/c4ccc(OCc5c[n+]6ccccc6n5C)cc4)cc3)cc2)c[n+]2ccccc12 | - | - | MIC bound | H37Rv | BACTEC | - | >12.5 µg/mL |
| O=C1/C(=C/c2ccc(Cl)cc2)COc2ccccc21 | 10 µg/mL | - | inhibition | H37Rv | broth dilution / resazurin | - | 45% |
| CCOC(=O)c1c(C)oc(=O)c(CC)c1O | - | - | MIC bound | H37Rv | BACTEC | - | >12.5 µg/mL |
| CC(C)N=c1cc2n(-c3ccc(Cl)cc3)c3ccccc3nc-2cc1Nc1ccc(Cl)cc1 | - | multidrug-resistant | MIC | 2227 | - | - | 0.06 µg/mL |

MIC50, MIC90 and the like: level of inhibition, or share of isolates inhibited. Neighbouring rows are from separate reports. MIC bound comes from a single tested concentration. Percent inhibition refers to the dose given; in toxicity tests it is the harm to the cells. a–b is a range or a potency band. ECn is the concentration giving n% inhibition of infection, replication or growth.